Measured values from several laboratories, pooled; numbers as filed in NIAID ChemDB.

Common to all: tests on isolated targets

Rows are shuffled and stem from different studies. a–b is a range or a potency band. ICn: concentration for n% inhibition. Inhibition is in % at the dose shown (toxicity tests: loss of growth or viability).

c1cc(OCc2cccs2)cc(-c2cnc3c(-c4nn[nH]n4)cnn3c2C2CCCCC2)c1 ; organism: Hepatitis C virus ; endpoint: IC50 ; target: RNA-dependent RNA polymerase ; value: 1–10 µM
CSc1cn2ccn(Cc3cccc(Cl)c3)c(=O)c2c(O)c1=O ; organism: HIV-1 ; endpoint: IC50 ; method: ELISA ; target: Integrase ; value: 0.01–0.1 µM
COc1ccc(-c2cc(-c3ccccc3)nc3cc(C(=O)O)nn23)cc1 ; organism: Hepatitis C virus ; endpoint: IC50 ; target: RNA-dependent RNA polymerase ; value: >10 µM
COc1ccc(OC)c(NCc2cnc3nc(N)nc(N)c3n2)c1 ; organism: Cryptosporidium parvum ; endpoint: IC50 ; strain or isolate: TYPE 2 ; target: Dihydrofolate reductase ; value: 3.2 µM
Cc1ccc(-c2cncc(N3CCN(c4cccc(Cl)c4)CC3)n2)cc1 ; organism: Cytomegalovirus ; endpoint: IC50 ; target: UL97 kinase ; value: <100 µM
O=C(O)c1cc2nc(-c3ccc(C(F)(F)F)cc3)cc(-c3ccc(Cl)c(Cl)c3)n2n1 ; organism: Hepatitis C virus ; endpoint: IC50 ; target: RNA-dependent RNA polymerase ; value: >10 µM
COc1ccc(-c2cncc(N3CCC(c4ccccc4)CC3)n2)cc1OC ; organism: Cytomegalovirus ; endpoint: IC50 ; target: UL97 kinase ; value: <10 µM
O=C(N[C@H](C(=O)O)c1ccccc1)c1cnn2c(C3CCCCC3)c(-c3ccc(F)cc3)cnc12 ; organism: Hepatitis C virus ; endpoint: IC50 ; target: RNA-dependent RNA polymerase ; value: <1 µM
O=C1c2c(O)c(=O)c(-c3nccs3)cn2CCN1CCCc1ccc(F)cc1 ; organism: HIV-1 ; endpoint: IC50 ; method: ELISA ; target: Integrase ; value: 0.01–0.1 µM
COc1ccccc1N1CCN(c2cncc(-c3ccc(C)cc3)n2)CC1 ; organism: Cytomegalovirus ; endpoint: inhibition ; dose: 10 µM ; target: UL97 kinase ; value: >15%
O=C(O)c1cc2nc(-c3ccc(Cl)cc3)cc(Nc3ccccc3)n2n1 ; organism: Hepatitis C virus ; endpoint: IC50 ; target: RNA-dependent RNA polymerase ; value: >10 µM
COCCN(C)C(=O)c1cn2ccn(Cc3cccc(Cl)c3)c(=O)c2c(O)c1=O ; organism: HIV-1 ; endpoint: IC50 ; method: ELISA ; target: Integrase ; value: 0.01–0.1 µM
CCOc1ccc(-c2cncc(N3CCN(c4ccccc4F)CC3)n2)cc1 ; organism: Cytomegalovirus ; endpoint: IC50 ; target: UL97 kinase ; value: <100 µM
Nc1nc(N)c2c(n1)Cc1ccc(Cl)cc1-2 ; organism: Cryptosporidium parvum ; endpoint: IC50 ; strain or isolate: TYPE 1 ; target: Dihydrofolate reductase ; value: >10 µM
COc1cccc(-c2cncc(N3CCN(c4ccccc4)CC3)n2)c1 ; organism: Cytomegalovirus ; endpoint: IC50 ; target: UL97 kinase ; value: <10 µM
COc1c(C2CCCCC2)c(-c2ccc(OCc3ccccc3)cc2)nc2c(C(=O)O)cnn12 ; organism: Hepatitis C virus ; endpoint: IC50 ; target: RNA-dependent RNA polymerase ; value: >10 µM
O=c1c(-c2cccc(O)c2)cn2ccn(Cc3cccc(Cl)c3)c(=O)c2c1O ; organism: HIV-1 ; endpoint: IC50 ; method: ELISA ; target: Integrase ; value: <0.01 µM
CN(Cc1ccc2nc(N)nc(N)c2n1)c1ccc(Cl)cc1 ; organism: Cryptosporidium parvum ; endpoint: IC50 ; strain or isolate: TYPE 1 ; target: Dihydrofolate reductase ; value: 9.1 µM
CN(C)c1ccc(CNC(=O)c2cn3c(c(O)c2=O)C(=O)N(Cc2ccc(F)cc2)CC3)cc1 ; organism: HIV-1 ; endpoint: IC50 ; method: ELISA ; target: Integrase ; value: 0.01–0.1 µM
O=C(O)c1cc2nc(-c3ccc(Cl)cc3Cl)cc(-c3ccc(OCc4ccccc4)cc3)n2n1 ; organism: Hepatitis C virus ; endpoint: IC50 ; target: RNA-dependent RNA polymerase ; value: 1–10 µM
O=C(NCCO)c1cn2ccn(Cc3cccc(Cl)c3)c(=O)c2c(O)c1=O ; organism: HIV-1 ; endpoint: IC50 ; method: ELISA ; target: Integrase ; value: 0.01–0.1 µM
CC(=O)c1ccc(N2CCN(c3cncc(-c4ccccc4Oc4ccccc4)n3)CC2)cc1 ; organism: Cytomegalovirus ; endpoint: inhibition ; dose: 10 µM ; target: UL97 kinase ; value: >15%
O=c1ccn2c(CCCO)cn(Cc3ccc(Cl)c(Cl)c3)c(=O)c2c1O ; organism: HIV-1 ; endpoint: IC50 ; method: ELISA ; target: Integrase ; value: 0.01–0.1 µM
CN(C)c1ccc(-c2cncc(N3CCN(c4ccccc4F)CC3)n2)cc1 ; organism: Cytomegalovirus ; endpoint: inhibition ; dose: 1 µM ; target: UL97 kinase ; value: <50%
CC(C)(C)C1CCc2nc(N)nc(N)c2C1 ; organism: Cryptosporidium parvum ; endpoint: IC50 ; strain or isolate: TYPE 2 ; target: Dihydrofolate reductase ; value: 0.21 µM
O=C(NCc1ccccc1F)c1cn2c(c(O)c1=O)C(=O)N(Cc1ccc(F)cc1)CC2 ; organism: HIV-1 ; endpoint: IC50 ; method: ELISA ; target: Integrase ; value: <0.01 µM
Fc1ccc(N2CCN(c3cncc(-c4ccoc4)n3)CC2)cc1 ; organism: Cytomegalovirus ; endpoint: inhibition ; dose: 10 µM ; target: UL97 kinase ; value: >15%
CC(C)c1c(-c2ccc(OCc3ccccc3)cc2)cnc2cc(C(=O)O)nn12 ; organism: Hepatitis C virus ; endpoint: IC50 ; target: RNA-dependent RNA polymerase ; value: >10 µM
Cc1ccccc1-c1cncc(N2CCN(c3ccccc3F)CC2)n1 ; organism: Cytomegalovirus ; endpoint: IC50 ; target: UL97 kinase ; value: <100 µM
O=Cc1cn(Cc2cccc(Cl)c2)c(=O)c2c(O)c(=O)ccn12 ; organism: HIV-1 ; endpoint: IC50 ; method: ELISA ; target: Integrase ; value: 0.01–0.1 µM

2 of the rows above, restated:

{"SMILES": "COc1ccccc1N1CCN(c2cncc(-c3ccc(C)cc3)n2)CC1", "organism": "Cytomegalovirus", "endpoint": "inhibition", "dose": "10 µM", "target": "UL97 kinase", "value": ">15%"}
{"SMILES": "O=Cc1cn(Cc2cccc(Cl)c2)c(=O)c2c(O)c(=O)ccn12", "organism": "HIV-1", "endpoint": "IC50", "method": "ELISA", "target": "Integrase", "value": "0.01–0.1 µM"}